Results published in paper PMC6299077 (Nature Communications, 2018).

Target: the molecule itself
Experiment: crystal structure

B1: tHN of BoNT/A1 (beltless translocation domain of botulinum neurotoxin A1, residues K547–K871) (domain or fragment)
chain: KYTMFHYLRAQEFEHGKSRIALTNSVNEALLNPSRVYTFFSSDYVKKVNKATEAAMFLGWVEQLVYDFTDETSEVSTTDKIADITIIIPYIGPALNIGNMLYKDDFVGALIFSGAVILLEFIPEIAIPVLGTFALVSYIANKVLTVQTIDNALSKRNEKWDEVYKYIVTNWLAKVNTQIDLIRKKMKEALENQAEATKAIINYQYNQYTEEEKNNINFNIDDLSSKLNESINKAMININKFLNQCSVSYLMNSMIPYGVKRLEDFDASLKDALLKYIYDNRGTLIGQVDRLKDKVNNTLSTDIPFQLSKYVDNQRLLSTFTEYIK
- stoichiometry N: 2
